PubChem BioAssay AID504761, Drosophila RNAi Screening Center, 2011
The deposit covers about 22,000 reagents; shown is an unselected part of those with a known target gene and a result. Of all reagents, 116 (0.52%) got an active call. 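Calls depend on retest data that are not deposited; infection was ranked per plate without normalising between plates; the unit of the infection score is not given.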 The raw values are shown without normalisation. A number with no mark means an inactive call. Reagents against one gene are numbered here. Not given: the amount of reagent, the time to read-out.

Screen: 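Genome-wide fly cell screen for genes dengue virus requires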 (primary screen)
Cells: D.Mel-2 cells from Drosophila
Reagents: long dsRNA against Drosophila genes
Treatment: infection with dengue virus type 2; dose and infection time not stated
Measured: 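Cells stained for dengue envelope protein and imaged; percent of infected cells per well on duplicate plates, ranked by infection, with stained nuclei counted for cell number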
Direction: infection score: higher = more virus-infected cells; cell count: higher = more cells in the well
Rule for the call: 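Very low infection ranking in both replicate wells (chance probability at most 0.065), then a retest showing infection dropped 1.5-fold or more at p below 0.05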
Meaning of the calls: active = confirmed: knock-down lowers infection; inactive = not picked or not confirmed

{"Target gene": "St2 (Sulfotransferase 2)", "dsRNA no.": 1, "infection score, replicate 1": 6.05, "infection score, replicate 2": 9.58, "cell count, replicate 1": 6432, "cell count, replicate 2": 6722}
{"Target gene": "St2 (Sulfotransferase 2)", "dsRNA no.": 2, "infection score, replicate 1": 1.72, "infection score, replicate 2": 19.7, "cell count, replicate 1": 6729, "cell count, replicate 2": 5686}
{"Target gene": "HBS1", "dsRNA no.": 1, "infection score, replicate 1": 11.5, "infection score, replicate 2": 16.5, "cell count, replicate 1": 6528, "cell count, replicate 2": 6498}
{"Target gene": "HBS1", "dsRNA no.": 2, "infection score, replicate 2": 7.1, "cell count, replicate 1": 359, "cell count, replicate 2": 5904}
{"Target gene": "CG14380", "dsRNA no.": 1, "infection score, replicate 1": 8.73, "infection score, replicate 2": 6.54, "cell count, replicate 1": 5912, "cell count, replicate 2": 6742}
{"Target gene": "CG31368", "dsRNA no.": 1, "infection score, replicate 1": 9.04, "infection score, replicate 2": 5.99, "cell count, replicate 1": 6228, "cell count, replicate 2": 6494}
{"Target gene": "CG31368", "dsRNA no.": 2, "infection score, replicate 1": 10.6, "infection score, replicate 2": 9.16, "cell count, replicate 1": 5593, "cell count, replicate 2": 5679}
{"Target gene": "CG3222", "dsRNA no.": 1, "infection score, replicate 1": 3.47, "infection score, replicate 2": 4.49, "cell count, replicate 1": 5584, "cell count, replicate 2": 5994}
{"Target gene": "CG9416", "dsRNA no.": 1, "infection score, replicate 1": 0.62, "infection score, replicate 2": 1.29, "cell count, replicate 1": 6620, "cell count, replicate 2": 6683}
{"Target gene": "Tb (Tubby)", "dsRNA no.": 1, "cell count, replicate 1": 328, "cell count, replicate 2": 361}
{"Target gene": "Tb (Tubby)", "dsRNA no.": 2, "infection score, replicate 1": 5.16, "infection score, replicate 2": 9.79, "cell count, replicate 1": 6187, "cell count, replicate 2": 5866}
{"Target gene": "Rlip (Ral interacting protein)", "dsRNA no.": 1, "infection score, replicate 1": 6.15, "infection score, replicate 2": 1.57, "cell count, replicate 1": 6102, "cell count, replicate 2": 7092}
{"Target gene": "Gas41", "dsRNA no.": 1, "infection score, replicate 1": 14.7, "infection score, replicate 2": 9.86, "cell count, replicate 1": 5839, "cell count, replicate 2": 5882}
{"Target gene": "CG8736", "dsRNA no.": 1, "infection score, replicate 1": 6.42, "infection score, replicate 2": 6.97, "cell count, replicate 1": 6494, "cell count, replicate 2": 6501}
{"Target gene": "CG8736", "dsRNA no.": 2, "infection score, replicate 1": 1.86, "infection score, replicate 2": 3.01, "cell count, replicate 1": 6302, "cell count, replicate 2": 6812}

Individual results from the entries so far.
CG8736 #2, cell count, replicate 1 → 6302
Value of HBS1 #2 in “infection score, replicate 2”: 7.1
Tb (Tubby) #1, cell count, replicate 2 → 361
